A mixed list of measured activities; the numbers were collected in NIAID ChemDB.

Common to all: whole-cell or culture tests; agent: HIV-1; read by: p24; endpoint: EC50

Rows are shuffled and stem from different studies. An empty or dashed field is not shown. ECn: concentration that inhibits the pathogen or its effect by n%.

structure | strain or isolate | setting | changes | cells | result
Cc1cc(C)c(-n2nnnc2SCC(=O)Nc2ccc(C(=O)NCCCN(C)C)cc2Cl)c(C)c1 | - | 50% human serum | - | MT-4 | <0.062 µM
Nc1ccn([C@H]2CC[C@@H](CO)O2)c(=O)n1 | RT-T69G K103N | - | RT-T69G K103N) | MT-2 | 0.163 µM
Nc1ccn([C@H]2CC[C@@H](CO)O2)c(=O)n1 | RT P119S L214F | - | RT-P119S L214F | MT-2 | 1 µM
O=C(N[C@H]1c2ccccc2OC[C@H]1O)[C@H](Cc1cccnc1)C[C@H](O)CN1CCN(Cc2ccn(-c3ccc(Cl)cc3)c2)C[C@H]1C(=O)NCC(F)(F)F | K-60C Clinical isolate | - | PR-L10I M46I I54V Q58E L63P I64V V77I V82F I84V L90M I93L | MT-4 | <0.015 µM
CC(C)(C)NC(=O)[C@@H]1CN(Cc2cccnc2)CCN1C[C@@H](O)C[C@@H](Cc1ccccc1)C(=O)N[C@H]1c2ccccc2C[C@H]1O | 52534-2 NRTI resistant recombinant | - | RT-M41L T69ins L74V M184V L210W T215Y | PBMC | 0.0365 µM
c1cc(CN2CCCNCCNCCCNCC2)ccc1CN1CCCNCCNCCCNCC1 | IIIB X4 | - | - | PBMC | 0.0685 µM
O=c1[nH]cnc2c1ncn2[C@H]1CC[C@@H](CO)O1 | LAI Laboratory isolate | - | - | PBMC | 0.62 µM
c1cc(CN2CCCNCCNCCCNCC2)ccc1CN1CCCNCCNCCCNCC1 | SW23 CLADE C R5 | - | - | PBMC | >0.5 µM
CC(C)(C)NC(=O)[C@@H]1C[C@@H]2CCCC[C@@H]2CN1C[C@@H](O)[C@H](Cc1ccccc1)NC(=O)[C@H](CC(N)=O)NC(=O)c1ccc2ccccc2n1 | Ba-L Laboratory isolate | - | - | PBMC | 0.014 µM
O=C(CSc1nnnn1-c1cccc2ccccc12)Nc1ccccc1F | - | - | - | MT-4 | <10 µM
O=C1N(Cc2ccc(CO)cc2)[C@H](Cc2ccccc2)[C@H](O)[C@@H](O)[C@@H](Cc2ccccc2)N1Cc1ccc(CO)cc1 | NL4-3 | - | PR-M46I L63P V82T I84V | MT-4 | <3 µM
Fc1ccccc1CCNC(=S)Nc1ccc(Br)cn1 | IIIB | - | - | PBMC | 0.001 µM
CC(C)[C@H](NC(=O)c1ccc2ccccc2n1)C(=O)N[C@@H](Cc1ccccc1)[C@H](O)CN1CC[C@@H](OCc2ccncc2)C[C@H]1C(=O)NC(C)(C)C | AZT-resistant | - | - | C8166 | 0.015 µM
Cc1cn([C@H]2C=C[C@@H](CO)O2)c(=O)[nH]c1=O | Recombinant | - | RT-Q151M | PBMC | 0.05 µM
Cc1cn([C@H]2C[C@H](N=[N+]=[N-])[C@@H](CO)O2)c(=O)[nH]c1=O | HXB2 | - | - | MT-2 | 0.013 µM
CC(C)c1ccccc1-n1nnnc1SCC(=O)Nc1ccccc1[N+](=O)[O-] | - | - | - | MT-4 | <10 µM
Nc1ccn([C@@H]2CS[C@H](CO)O2)c(=O)n1 | Ba-L Laboratory isolate | - | - | PBMC | 0.054 µM
COC(=O)[C@H](C)NP(=O)(OC[C@@H]1C=C[C@H](n2cc(C)c(=O)[nH]c2=O)O1)Oc1ccc(Br)cc1 | X165-9 Clinical isolate ZDV-resistant | - | RT-K20R D67N K103N T215Y | PBMC | 0.002 µM
C[C@@H](CNC(=S)Nc1ccc(Br)cn1)C1CCCCC1 | IIIB | - | - | PBMC | 0.001 µM
CC(=O)Nc1ccc(Cl)c(NC(=O)CSc2nnnn2-c2c(C)cc(C)cc2C)c1 | - | - | - | MT-4 | <10 µM
O=C(N[C@H]1c2ccccc2OC[C@H]1O)[C@H](Cc1cccnc1)C[C@H](O)CN1CCN(Cc2ccn(-c3ccccc3)c2)C[C@H]1C(=O)NCC(F)(F)F | K-60C Clinical isolate | - | PR-L10I M46I I54V Q58E L63P I64V V77I V82F I84V L90M I93L | MT-4 | <0.031 µM
C[C@@H](NC(=S)Nc1ccc(Cl)cn1)c1cccc2ccccc12 | NNRTI-resistant (RT Y181C) A17 | - | RT-Y181C | PBMC | 0.043 µM
N#Cc1ccc(-n2ccc(CN3CCN(C[C@@H](O)C[C@@H](Cc4cccnc4)C(=O)N[C@H]4c5ccccc5OC[C@H]4O)[C@H](C(=O)NCC(F)(F)F)C3)c2)cc1 | NL4-3 WT | - | - | MT-4 | <0.062 µM
Cc1cc(C)c(-n2nnnc2SCC(=O)Nc2ccc([N+](=O)[O-])cc2C)c(C)c1 | - | 10% FBS | - | MT-4 | <1.25 µM
O=C(N[C@H]1c2ccccc2OC[C@H]1O)[C@H](Cc1cccnc1)C[C@H](O)CN1CCN(Cc2ccn(-c3ccc(F)cc3)c2)C[C@H]1C(=O)NCC(F)(F)F | Q-60C Clinical isolate | - | PR-L10I N37S R41K M46I I54V I62V L63P A71V V77I V82A L90M I93L | MT-4 | <0.015 µM
C[C@H](Cn1cnc2c(N)ncnc21)OCP(=O)(O)O | Saquinavir-resistant (G48V L90M) | - | RT-G48V L90M | MT-2 | 1.2 µM
COC(=O)[C@H](C)NP(=O)(OC[C@@H]1C=C[C@H](n2cc(C)c(=O)[nH]c2=O)O1)Oc1ccc(Br)cc1 | G704-2 NRTI resistant | - | RT-M41L D67N K70R L210W T215Y | PBMC | 0.0032 µM
Cc1cc(C)c(-n2nnnc2SCC(=O)Nc2ccc(OCCCN(C)C)cc2Cl)c(C)c1 | - | 10% FBS | - | MT-4 | <0.031 µM
O=c1[nH]cnc2c1ncn2[C@H]1CC[C@@H](CO)O1 | 126 BCH-189 (RT-M184V) | - | RT-M184V | MT-4 | 65 µM
O=C(CSc1nnnn1-c1cc(Cl)ccc1Cl)Nc1ccccc1[N+](=O)[O-] | - | 50% human serum | - | MT-4 | <1.25 µM
C[C@@H](CNC(=S)Nc1ccc(Cl)cn1)c1ccccc1 | IIIB | - | - | PBMC | <0.001 µM
Nc1ncnc2c1ncn2CCOCP(=O)(O)O | RT A62V/V75I/F77L/F116Y/Q151M | - | RT-A62V V75I F77L F116Y Q151M | MT-2 | 1.4 µM
CC(C)CN(C[C@@H](O)[C@H](Cc1ccccc1)NC(=O)[C@H](CC(N)=O)NC(=O)c1ccc2ccccc2n1)C(=O)NC(C)(C)C | NL4-3 | - | PR-L10R L63P | MT-4 | <0.2 µM
CCO/N=C(\c1ccc(Br)cc1)C1CCN(C2(C)CCN(C(=O)c3c(C)cc[n+]([O-])c3C)CC2)CC1 | QZ4589 R5 CLADE B | - | - | PBMC | 0.01 µM
Cc1cc(C)c(-n2nnnc2SCC(=O)Nc2ccc(S(N)(=O)=O)cc2Cl)c(C)c1 | - | 50% human serum | - | MT-4 | <0.062 µM
Cc1csc(NC(=S)N[C@H](C)c2ccccc2)n1 | IIIB | - | - | PBMC | <0.001 µM
O=C(CSc1nnnn1-c1cccc(Cl)c1Cl)Nc1ccccc1[N+](=O)[O-] | - | 10% FBS | - | MT-4 | <0.078 µM
Cc1cn([C@H]2C[C@H](N=[N+]=[N-])[C@@H](CO)O2)c(=O)[nH]c1=O | P798-1 Clinical isolate ZDV-resistant | - | RT-M41L T215Y | PBMC | 1.8 µM
Cc1cc(C)c(-n2nnnc2SCC(=O)Nc2ccccc2Br)c(C)c1 | - | 10% FBS | - | MT-4 | <0.1 µM
Nc1nc(NC2CC2)c2ncn([C@H]3C=C[C@@H](CO)C3)c2n1 | - | - | RT-delta67 K103N | MT-2 | 0.268 µM
CCC[C@@]1(CCc2ccccc2)CC(O)=C([C@H](CC)c2cccc(NS(=O)(=O)c3ccc(C(F)(F)F)cn3)c2)C(=O)O1 | Isolate N. Amer 3 | - | - | PBMC | <0.07 µM
Cc1cc(C)c(-n2nnnc2SCC(=O)Nc2ccc(F)cc2C)c(C)c1 | - | - | - | MT-4 | <10 µM
O=c1[nH]cnc2c1ncn2[C@H]1CC[C@@H](CO)O1 | U455 | - | - | PBL | 0.6 µM
Nc1ncnc2c1ncn2[C@@H]1O[C@H](CO)C[C@@H]1F | M184V(RT-M184V) | - | RT-M184V | MT-2 | 4.8 µM
CC(C)CN(C[C@@H](O)[C@H](Cc1ccccc1)NC(=O)O[C@H]1CCOC1)S(=O)(=O)c1ccc(N)cc1 | ERS104PRE(PR-L63P) Clinical isolate | - | PR-L63P | PBMC | 0.025 µM
Cc1cn([C@H]2C[C@H](N=[N+]=[N-])[C@@H](CO)O2)c(=O)[nH]c1=O | Recombinant | - | RT-F116Y | PBMC | 0.001 µM
Cc1cn([C@H]2C[C@H](N=[N+]=[N-])[C@@H](CO)O2)c(=O)[nH]c1=O | HXB2-D (RT K65R M184V) | - | RT-K65R M184V | MT-4 | 0.013 µM
O=C(O)P(=O)(O)O | 8890 CLADE C CLADE C | - | - | PBMC | 6.72 µM
COc1ccc(CN[C@@H](C(=O)N[C@H]2c3ccccc3C[C@H]2O)[C@H](O)[C@H](Cc2ccccc2)NC(=O)[C@@H](NC(=O)OCc2ccccc2)C(C)(C)C)cc1 | A018A | - | - | Primary T4 cells + T4 | 0.028 µM

Repeating the first 4 entries:

Cc1cc(C)c(-n2nnnc2SCC(=O)Nc2ccc(C(=O)NCCCN(C)C)cc2Cl)c(C)c1 ; setting: 50% human serum ; cells: MT-4 ; result: <0.062 µM
Nc1ccn([C@H]2CC[C@@H](CO)O2)c(=O)n1 ; strain or isolate: RT-T69G K103N ; changes: RT-T69G K103N) ; cells: MT-2 ; result: 0.163 µM
Nc1ccn([C@H]2CC[C@@H](CO)O2)c(=O)n1 ; strain or isolate: RT P119S L214F ; changes: RT-P119S L214F ; cells: MT-2 ; result: 1 µM
O=C(N[C@H]1c2ccccc2OC[C@H]1O)[C@H](Cc1cccnc1)C[C@H](O)CN1CCN(Cc2ccn(-c3ccc(Cl)cc3)c2)C[C@H]1C(=O)NCC(F)(F)F ; strain or isolate: K-60C Clinical isolate ; changes: PR-L10I M46I I54V Q58E L63P I64V V77I V82F I84V L90M I93L ; cells: MT-4 ; result: <0.015 µM